The values below come from PMC8949118, “The Transcription Factor SpoVG Is of Major Importance for Biofilm Formation of Staphylococcus epidermidis under In Vitro Conditions, but Dispensable for In Vivo Biofilm Formation”.

In data set [1] the target is T1, HAT-HA-SpoVG (Staphylococcus epidermidis 1457) (UniProt Q8CML1).
T1 sequence (looked up, limits assumed): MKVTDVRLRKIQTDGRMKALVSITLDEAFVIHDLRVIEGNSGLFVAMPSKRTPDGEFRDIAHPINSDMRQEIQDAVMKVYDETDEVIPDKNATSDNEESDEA
Put plainly: competition EMSA. The note with it: 10x or 20x excess over labeled icaR probe; 20 mM HEPES pH 8.0, 10 mM KCl, 2 mM MgCl2, 0.1 mM EDTA, 0.1 mM DTT, 50 ug/mL BSA, 10% glycerol; 200 fmol probe in 20 uL; 30 min room temperature; recombinant protein; protein details: N-terminal HAT-HA-linker. On the technique in general: A gel shift assay detects complexes by their altered migration in electrophoresis.

Data set [2] deals with T1, HAT-HA-SpoVG (Staphylococcus epidermidis 1457). Put plainly: EMSA. The note with it: 2-12 uM SpoVG, 2 mM Mg2+; 20 mM HEPES pH 8.0, 10 mM KCl, 2 mM MgCl2, 0.1 mM EDTA, 0.1 mM DTT, 50 ug/mL BSA, 10% glycerol; 200 fmol probe in 20 uL; 30 min room temperature; recombinant protein; protein details: N-terminal HAT-HA-linker; label: DYE682.

For at least one entry, the source does not settle the construct or the ends of the probe. Where a protein sequence is shown, tags need not be part of it.

Regarding “GAAACAGTAATATTTGTAATTTTAACTTAATTTTTCTGTAATATATTTTTAGAAAATTGAATAAGGGGGAGATTTTAGAA / TTCTAAAATCTCCCCCTTATTCAATTTTCTAAAAATATATTACAGAAAAATAAGTTAAAATTACAAATATTACTGTTTC [unlabeled icaR probe]”, the binding result in data set [1] was “binds”.
With “GAAACAGTAATATTTGTAATTTTAACTTAATTTTTCTGTAATATATTTTTAGAAAATTGAATAAGGGGGAGATTTTAGAA / TTCTAAAATCTCCCCCTTATTCAATTTTCTAAAAATATATTACAGAAAAATAAGTTAAAATTACAAATATTACTGTTTC [icaR probe]”, in data set [2], the binding result is “binds”.
